Reference: article PMC10655190, “Targeted Mutation of a Non-catalytic Gating Residue Increases the Rate of Pseudomonas aeruginosaD-Arginine Dehydrogenase Catalytic Turnover” (Journal of Agricultural and Food Chemistry, 2023)

Legend:
[1] = test system: N=C(N)NCCC[C@@H](N)C(=O)O; experiment: purified protein; conditions: 1 mM PMS, 20 mM sodium pyrophosphate, pH 10.0, 25 °C
CC(C)C[C@@H](N)C(=O)O = experiment: purified protein; conditions: 1 mM PMS, 20 mM sodium pyrophosphate, pH 10.0, 25 °C

**Q.** “Pseudomonas aeruginosa D-arginine dehydrogenase (PaDADH) (Pseudomonas aeruginosa PAO1; E246L)” was tested. Which Km [1] did it give?
**A.** 0.30 ± 0.02 mM

**Q.** And the kcat [1]?
**A.** 265 s⁻¹

**Q.** And the kcat/Km [1]?
**A.** 871000 M⁻¹ s⁻¹

**Q.** And the Km (CC(C)C[C@@H](N)C(=O)O)?
**A.** 5.8 ± 0.6 mM

**Q.** And the kcat (CC(C)C[C@@H](N)C(=O)O)?
**A.** 27 s⁻¹

**Q.** And the kcat/Km (CC(C)C[C@@H](N)C(=O)O)?
**A.** 4600 M⁻¹ s⁻¹

**Q.** Which Km [1] does the source give for “Pseudomonas aeruginosa D-arginine dehydrogenase (PaDADH) (Pseudomonas aeruginosa PAO1; E246G)” here?
**A.** 0.20 ± 0.02 mM

**Q.** What about the kcat [1] of the same substance?
**A.** 500 s⁻¹

**Q.** What about the kcat/Km [1] of the same substance?
**A.** 2.5e+06 M⁻¹ s⁻¹

**Q.** What about the Km (CC(C)C[C@@H](N)C(=O)O) of the same substance?
**A.** 7.3 ± 0.7 mM

**Q.** What about the kcat (CC(C)C[C@@H](N)C(=O)O) of the same substance?
**A.** 35 s⁻¹

**Q.** And the kcat/Km (CC(C)C[C@@H](N)C(=O)O)?
**A.** 4800 M⁻¹ s⁻¹

**Q.** “Pseudomonas aeruginosa D-arginine dehydrogenase (PaDADH) (Pseudomonas aeruginosa PAO1; E246Q)” was tested. Which Km [1] did it give?
**A.** 0.19 ± 0.01 mM

**Q.** What about the kcat [1] of the same substance?
**A.** 275 s⁻¹

**Q.** What about the kcat/Km [1] of the same substance?
**A.** 1.5e+06 M⁻¹ s⁻¹

**Q.** What about the Km (CC(C)C[C@@H](N)C(=O)O) of the same substance?
**A.** 11 ± 1 mM

**Q.** What about the kcat (CC(C)C[C@@H](N)C(=O)O) of the same substance?
**A.** 30 s⁻¹

**Q.** And the kcat/Km (CC(C)C[C@@H](N)C(=O)O)?
**A.** 2600 M⁻¹ s⁻¹
